## Mutational scan of HIV-1 Vif (1203) in cells with APOBEC3G

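A pool of vif mutants was passaged twice, 72 h each, on SupT1 cells that express APOBEC3G. Each of three replicates was sequenced after round two and set against the merged round-one pool. The overlap of vif with pol had been removed, so integrase is unaffected.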

Protein: Vif of HIV-1 1203 (a subtype B primary isolate). Residues 12-115 were scanned and are shown below; the first letter is residue 12.
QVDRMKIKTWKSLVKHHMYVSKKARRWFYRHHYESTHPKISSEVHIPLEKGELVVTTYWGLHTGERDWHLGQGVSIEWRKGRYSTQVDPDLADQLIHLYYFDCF

Scale: log2 enrichment, wild type = 0; negative values mean that the variant was depleted. Substitutions are written as wild-type residue, site number, new residue. This list holds changes to methionine only. The median of three replicates is given. Input reads are the counts in the merged round-one pool, before selection. The scan is noisy: the rank correlation of replicates is about 0.4 to 0.65, and variants with under about 50 input reads tend to read too high.

| mutation | input reads | median log2 enrichment |
|---|---|---|
| F112M | 16 | -2.05 |
| F115M | 515 | 0.49 |

Positive scores are uncertain; some enriched variants did not exclude APOBEC3G in a separate test. Not every substitution is listed.

From the data files of Langley et al. 2025, preprint, doi:10.1101/2025.10.20.683452.